Measured values from several laboratories, pooled; numbers as filed in NIAID ChemDB.

All rows: growth or infection tests; agent: HIV-1; endpoint: EC50

Blank or dashed fields: not listed here. Two numbers with a dash give a range or band. Neighbouring rows are from separate reports. ECn is the concentration giving n% inhibition of infection, replication or growth.

structure	method	cell line	strain or isolate	mutations	conditions	result
CC(C)C1=C2[C@H]3CC[C@@H]4[C@@]5(C)CC[C@H](OC(=O)[C@H]6C[C@@H](C(=O)O)C6(C)C)C(C)(C)[C@@H]5CC[C@@]4(C)[C@]3(C)CC[C@@]2([C@@H](O)CNCC(C)(C)NC(=O)c2ccc(Cl)cc2OC2CCNCC2)CC1=O	p24 / ELISA	MT-2	92HT599			<1 µM
CCc1ccc(-c2c(C(OC3CCC3)C(=O)O)c(C)nc3ccc(Cl)cc23)cc1	luciferase / reporter gene	C8166				<20 µM
S=c1[nH]c(=S)c2c3c(sc2[nH]1)CCCCC3	absorbance	CEM				>5.25 µM
C[C@H]1CO[C@@H]2Cn3cc(C(=O)NCc4ccc(F)cc4F)c(=O)c(O)c3C(=O)N12	single cycle	TZM-bl	NL4-3			0.00056 µM
Cc1nnc(-c2cccc(-c3cccc(C(=O)N4CCCCC4)c3)c2)o1	luminescence	TZM-bl	CNE55		pseudotyped	>30 µM
Cc1nc2ccc(Cl)cc2c(-c2ccc(N(C)C)cc2)c1C(OC(C)C)C(=O)O	luciferase / reporter gene	C8166				<20 µM
CC1CC(C)CN(S(=O)(=O)c2ccccc2[N+](=O)[O-])C1	GFP / fluorescence	HeLa	D-92UG046			1.47 µM
Cc1nc2ccc(Br)cc2c(-c2ccc(Cl)cc2)c1C(OC(C)(C)C)C(=O)O	luciferase / reporter gene	C8166				<20 µM
CC(C)C1=C2[C@H]3CC[C@@H]4[C@@]5(C)CC[C@H](OC(=O)[C@H]6C[C@@H](C(=O)O)C6(C)C)C(C)(C)[C@@H]5CC[C@@]4(C)[C@]3(C)CC[C@@]2(CC(=O)NCC(CN)NC(=O)c2ccc(Cl)cc2)CC1=O	p24 / ELISA	MT-2	92HT599			<1 µM
CCc1ccc(-c2c(C(OC3(C)CC3)C(=O)O)c(C)nc3ccc(Cl)cc23)cc1	luciferase / reporter gene	C8166				<20 µM
CNC(=O)c1c(O)c2ncc(Cc3ccc(F)cc3)c3c2n(c1=O)C[C@@H](C(=O)NC(C)(C)CO)O3	ATP / luminescence	MT-2	IIIB			0.012 µM
CC1=C(CO)CC(C(C)C2CCC3C4CC=C5CC(OC6OC(COC7OC(CO)C(O)C(O)C7O)C(O)C(O)C6O)CC(O)C5(C)C4CCC23C)OC1=O	visual reading / absorbance	TZM-bl	HXB2		pseudotyped	16.2 µM
Cc1cc(/C=C/C#N)cc(C)c1Oc1nc(NC2CCN(Cc3ccc(Cl)cc3)CC2)nc2ccsc12	MTT	MT-4	IIIB	NNRTI-resistant (RT F227L V106A)		0.108 µM
CC(C)C1=C2[C@H]3CC[C@@H]4[C@@]5(C)CC[C@H](OC(=O)[C@H]6C[C@@H](C(=O)O)C6(C)C)C(C)(C)[C@@H]5CC[C@@]4(C)[C@]3(C)CC[C@@]2([C@@H](O)CNCc2ccc(CN3CCC(O)CC3)cc2)CC1=O	p24 / ELISA	MT-2	92HT599			<1 µM
COc1ccc(C2CC(=O)c3c(O)cc(O[C@@H]4O[C@H](CO[C@@H]5O[C@@H](C)[C@H](O)[C@@H](O)[C@H]5O)[C@@H](O)[C@H](O)[C@H]4O)cc3O2)cc1O	visual reading / absorbance	TZM-bl	HXB2		pseudotyped	>100 µg/mL
CCOCn1c(Cc2ccccc2)c(C(C)C)c(=O)[nH]c1=O	MTT / p24	PBMC	IIIB			0.004 µM
CCN1C(c2ccccc2)c2cc(Cl)ccc2S1(=O)=O	p24 / RT activity					19.3 µM
CNC(=O)[C@]1(C)Cn2c(=O)c(C(=O)NCCOC)c(O)c3ncc(Cc4ccc(F)cc4)c(c32)O1	ATP / luminescence	MT-2	IIIB			0.0147 µM
CC1(C)CC=C(c2cn(-c3nccc(C(=O)NC4CCC(N5CC6CCC(C5)O6)CC4)n3)c3ccc(F)c([C@H](OC(C)(C)C)C(=O)O)c23)CC1	luminescence	MT-4	NL4-3	G140S/Q148R		0.0039 µM
Cc1cc(/C=C/C#N)cc(C)c1Oc1nc(NC2CCN(Cc3ccc(Br)cc3)CC2)nc2ccsc12	MTT	MT-4	IIIB	NNRTI-resistant (RT K103N)		0.0299 µM
CC1(O)COc2c(Cc3ccc(F)cc3)cnc3c(O)c(C(=O)NCCO)c(=O)n(c23)C1	ATP / luminescence	MT-2	IIIB			0.002 µM
C[C@@H]1CCO[C@H]2Cn3cc(C(=O)NCc4ccc(F)cc4F)c(=O)c(O)c3C(=O)N12	luciferase / luminescence	TZM-bl		L74F/V75I		0.0008 µM
CNC(=O)c1c(O)c2ncc(Cc3ccc(F)cc3)c3c2n(c1=O)C=C(C(=O)NCC(C)(C)C#N)O3	ATP / luminescence	MT-2	IIIB			0.0007 µM
CCC[C@@H](CC(=O)O)NC(=O)c1ccccc1SSc1ccccc1C(=O)N[C@@H](CCC)CC(=O)O	cytopathic effect / XTT	CEM	IIIB			3.2 µM
Cc1nc2ccc(Cl)cc2c(-c2ccsc2)c1C(OC(C)C)C(=O)O	luciferase / reporter gene	C8166				<20 µM
COc1c(-c2cc(C)[nH]n2)c(O)c(S(=O)(=O)Oc2ccc([N+](=O)[O-])cc2)c2occc12	cytopathic effect / MTS	CEM-SS	RF			0.000038 µM
CSCSc1nc(Cc2ccccc2)c(C(C)C)c(=O)[nH]1	MTT / p24	PBMC	IIIB			<0.001 µM
CC(C)CN(C[C@@H](O)[C@H](Cc1cc(F)cc(F)c1)NC(=O)O[C@H]1CO[C@H]2OC[C@H](NC(C)C)[C@H]21)S(=O)(=O)c1ccc2nc(NC3CC3)sc2c1	p24 / luminescence	MT-4	NL4-3			0.00022 µM
Cc1nc2ccc(Cl)cc2c(-c2ccc(CO)cc2)c1C(OC(C)C)C(=O)O	luciferase / reporter gene	C8166				<20 µM
Cc1cc(C#N)cc(C)c1Oc1nc(NC2CCC(NCc3ccccc3)CC2)nc2ccsc12	MTT	MT-4	IIIB	NNRTI-resistant (RT Y188L)		>2.98 µM
CNC(=O)c1c(O)c2ncc(Cc3ccc(F)cc3)c3c2n(c1=O)CC[C@H](C(C)=O)O3	ATP / luminescence	MT-2	IIIB			0.043 µM
CN(C)CCCN(C)C(=O)c1ccc(C2=NN3C(C(=O)c4ccc(F)cc4)Oc4ccccc4C3C2)cc1	GFP / reporter gene	MT-4	LAI			1–10 µM
CC(C)C1=C2[C@H]3CC[C@@H]4[C@@]5(C)CC[C@H](OC(=O)[C@H]6C[C@@H](C(=O)O)C6(C)C)C(C)(C)[C@@H]5CC[C@@]4(C)[C@]3(C)CC[C@@]2(CCNCC(F)(CO)NC(=O)c2ccc(Cl)cc2)CC1=O	p24 / ELISA	MT-2	92HT599			<1 µM
Cc1ccccc1-c1c(C(OC(C)C)C(=O)O)c(C)nc2ccc(Cl)cc12	luciferase / reporter gene	C8166				<20 µM
CN(C)CCN(C)C(=O)c1ccc(C2=NN3C(C(=O)c4ccc(F)cc4)Oc4ccccc4C3C2)cc1	GFP / reporter gene	MT-4	LAI			<1 µM
CC(C)C[C@@H](CC(=O)O)NC(=O)c1ccccc1SSc1ccccc1C(=O)N[C@H](CC(=O)O)CC(C)C	cytopathic effect / XTT	CEM	IIIB			3.4 µM
COc1c(-c2cc(C)n(-c3ccccc3)n2)c(O)c(S(=O)(=O)OC2CCCC2)c2occc12	cytopathic effect / MTS	CEM-SS	RF			0.00004 µM
O=C(NCc1ccco1)c1ccc(C2=NN3C(C(=O)c4ccc(F)cc4)Oc4ccccc4C3C2)cc1	GFP / reporter gene	MT-4	LAI			1–10 µM
Cc1cc(/C=C/C#N)cc(C)c1Oc1nc(NC2CCN(Cc3cccc(Br)c3)CC2)nc2ccsc12	MTT	MT-4	IIIB	NNRTI-resistant (RT L100I)		0.0285 µM
CC(C)C1=C2[C@H]3CC[C@@H]4[C@@]5(C)CC[C@H](OC(=O)[C@H]6C[C@@H](C(=O)O)C6(C)C)C(C)(C)[C@@H]5CC[C@@]4(C)[C@]3(C)CC[C@@]2([C@@H](O)CNCc2ccc(Cl)cn2)CC1=O	p24 / ELISA	MT-2	92HT599			<1 µM
CN1[C@H](c2cccc(Cl)c2)c2ccccc2S1(=O)=O	p24 / RT activity					5.28 µM
O=C(O)C[C@H](Cc1ccccc1)NC(=O)c1ccccc1SSc1ccccc1C(=O)N[C@H](CC(=O)O)Cc1ccccc1	cytopathic effect / XTT	CEM	IIIB			2.1 µM
CN1C(C)(c2cccc(O)c2)c2ccccc2S1(=O)=O	p24 / RT activity					30.7 µM
CCCc1cc(=O)oc2c3c(c4c(c12)OC(C)(C)CC4)O[C@H](C)[C@@H](C)C3=O	cytopathic effect / XTT	CEM + CEM-SS	RF			0.9 µM
C=CCN(C(=O)c1ccc(C2=NN3C(C(=O)c4ccc(F)cc4)Oc4ccccc4C3C2)cc1)C1CCCCC1	GFP / reporter gene	MT-4	LAI			1–10 µM
Cc1cc(/C=C/C#N)cc(C)c1Oc1nc(NC2CCN(Cc3ccccc3Cl)CC2)nc2ccsc12	MTT	MT-4	RES056			0.165 µM
COCCNC(=O)c1c(O)c2ncc(Cc3ccc(F)cc3)c3c2n(c1=O)C[C@H](CN1CCN(S(C)(=O)=O)CC1)O3	ATP / luminescence	MT-2	IIIB			0.0097 µM
C[C@@H]1CCO[C@H]2Cn3cc(C(=O)NCc4ccc(F)cc4F)c(=O)c(O)c3C(=O)N12	p24 / luminescence	MT-4	NL4-3			0.0007 µM
N#CC1=CC2Nc3ccccc3C2N(c2ccc([N+](=O)[O-])cc2)C1=O	GFP / fluorescence	HeLa	4755-5			0.12 µM
CC(C)C1=C2[C@H]3CC[C@@H]4[C@@]5(C)CC[C@H](OC(=O)[C@H]6C[C@@H](C(=O)O)C6(C)C)C(C)(C)[C@@H]5CC[C@@]4(C)[C@]3(C)CC[C@@]2(CC(=O)NC(C)(C)c2ccccc2)CC1=O	p24 / ELISA	MT-2	92HT599			<1 µM
O=C(NCc1cccc(F)c1)c1ccc(C2=NN3C(C(=O)c4ccc(F)cc4)Oc4ccccc4C3C2)cc1	GFP / reporter gene	MT-4	LAI			>10 µM
COc1c(-c2cc(C)on2)c(O)c(S(=O)(=O)OC2CCCC2)c2occc12	cytopathic effect / MTS	CEM-SS	RF			0.000055 µM
CN1C(c2ccccc2)c2cc(Cl)ccc2S1(=O)=O	p24 / RT activity					26.1 µM
COc1c2ccoc2c(S(=O)(=O)Oc2ccc([N+](=O)[O-])cc2)c2oc(C)cc(=O)c12	cytopathic effect / MTS	CEM-SS	RF			0.000084 µM
O=C(Nc1ccc(C[C@H](NC(=O)c2ccccc2SSc2ccccc2C(=O)N[C@@H](Cc2ccc(NC(=O)OCc3ccccc3)cc2)C(=O)O)C(=O)O)cc1)OCc1ccccc1	cytopathic effect / XTT	CEM	IIIB			13 µM
COc1c(-c2cc(C)n(C)n2)c(O)c(S(=O)(=O)OC2CCCCC2)c2occc12	cytopathic effect / MTS	CEM-SS	RF			0.000046 µM
CCCCOc1nc(N)c2c(n1)N(Cc1cccc(CN3CCCC3)c1)CC(=O)N2	luciferase / reporter gene / luminescence	CD4+ T-cell	NL4-3		pseudotyped	>7 µM
C[C@@H]1O[C@H]2O[C@H]3[C@@H](C)OC(c4ccc5c(c4O)C(=O)c4ccc(C[C@@](C)(O)CC(=O)O)c(O)c4C5=O)C[C@H]3O[C@H]2CC1=O	visual reading / absorbance	TZM-bl	HXB2		pseudotyped	21.6 µM
O=C(NCc1cccs1)c1ccc(C2=NN3C(C(=O)c4ccc(F)cc4)Oc4ccccc4C3C2)cc1	GFP / reporter gene	MT-4	LAI			>10 µM
CNC(=O)c1c(O)c2ncc(Cc3ccc(F)cc3)c3c2n(c1=O)C[C@](C)(C(=O)NC1CC1)O3	ATP / luminescence	MT-2	IIIB			0.015 µM
CCc1ccc(C(=O)C2Oc3ccccc3C3CC(c4ccc(C(=O)NC5CCCC5)cc4)=NN23)cc1	GFP / reporter gene	MT-4	LAI			<1 µM
Cc1ccc(C)c(C2c3ccccc3S(=O)(=O)N2C)c1	p24 / RT activity					0.512 µM
CN(C)c1ccc(NC(=O)c2ccc(C3=NN4C(C(=O)c5ccc(F)cc5)Oc5ccccc5C4C3)cc2)cc1	GFP / reporter gene	MT-4	LAI			<1 µM
CN1C(c2c(F)c(F)c(F)c(F)c2F)c2ccccc2S1(=O)=O	p24 / RT activity					40.2 µM
Cc1cc(C#N)cc(C)c1Oc1nc(NC2CCN(Cc3ccc(S(N)(=O)=O)cc3)CC2)nc2sccc12	MTT	MT-4	RES056			0.0387 µM
CNC(=O)[C@@]1(C)Cn2c(=O)c(C(=O)NCCC#N)c(O)c3ncc(Cc4ccc(F)cc4)c(c32)O1	ATP / luminescence	MT-2	IIIB			0.078 µM
O=C(N[C@@H](CCC1CCCCC1)C(=O)O)c1ccccc1SSc1ccccc1C(=O)N[C@@H](CCC1CCCCC1)C(=O)O	cytopathic effect / XTT	CEM	IIIB			5.6 µM
CN1C(c2cccc(C(F)(F)F)c2)c2ccccc2S1(=O)=O	p24 / RT activity					0.653 µM
COc1c(C(=O)/C=C(/C)Nc2ccc([N+](=O)[O-])cc2)c(O)c(S(=O)(=O)OC2CCCCC2)c2occc12	cytopathic effect / MTS	CEM-SS	RF			0.000071 µM
COc1ccc(CNC(=O)c2ccc(C3=NN4C(C(=O)c5ccc(F)cc5)Oc5ccccc5C4C3)cc2)cc1	GFP / reporter gene	MT-4	LAI			>10 µM

6 of the rows above, restated:

structure,method,cell line,strain or isolate,mutations,conditions,result
CN1C(c2c(F)c(F)c(F)c(F)c2F)c2ccccc2S1(=O)=O,p24 / RT activity,,,,,40.2 µM
CCc1ccc(-c2c(C(OC3(C)CC3)C(=O)O)c(C)nc3ccc(Cl)cc23)cc1,luciferase / reporter gene,C8166,,,,<20 µM
CCN1C(c2ccccc2)c2cc(Cl)ccc2S1(=O)=O,p24 / RT activity,,,,,19.3 µM
CC(C)C1=C2[C@H]3CC[C@@H]4[C@@]5(C)CC[C@H](OC(=O)[C@H]6C[C@@H](C(=O)O)C6(C)C)C(C)(C)[C@@H]5CC[C@@]4(C)[C@]3(C)CC[C@@]2(CCNCC(F)(CO)NC(=O)c2ccc(Cl)cc2)CC1=O,p24 / ELISA,MT-2,92HT599,,,<1 µM
CNC(=O)c1c(O)c2ncc(Cc3ccc(F)cc3)c3c2n(c1=O)CC[C@H](C(C)=O)O3,ATP / luminescence,MT-2,IIIB,,,0.043 µM
COc1c2ccoc2c(S(=O)(=O)Oc2ccc([N+](=O)[O-])cc2)c2oc(C)cc(=O)c12,cytopathic effect / MTS,CEM-SS,RF,,,0.000084 µM